# Laboratory results published in publication PMC4624963, “Enzymatic Characterization of Recombinant Food Vacuole Plasmepsin 4 from the Rodent Malaria Parasite Plasmodium berghei” (PLoS ONE, 2015).
# Protein sequences, listed by entry. Tags and fused reporters are not part of them. Residues count along the entry.
# UniProt O76965, 118-450 limits assumed: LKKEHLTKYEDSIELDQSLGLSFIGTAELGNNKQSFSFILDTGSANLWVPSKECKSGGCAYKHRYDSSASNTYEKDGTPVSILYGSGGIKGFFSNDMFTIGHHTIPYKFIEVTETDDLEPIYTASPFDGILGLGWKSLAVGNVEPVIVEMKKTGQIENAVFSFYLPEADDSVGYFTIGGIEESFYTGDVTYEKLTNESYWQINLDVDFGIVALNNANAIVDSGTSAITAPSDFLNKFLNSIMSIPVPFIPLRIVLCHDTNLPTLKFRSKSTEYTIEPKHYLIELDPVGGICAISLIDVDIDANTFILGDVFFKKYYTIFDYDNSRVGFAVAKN
# Molecular target: PbPM4 (Plasmodium berghei, UniProt O76965)
# Assay: Inhibition of mature PbPM4, dissociation constants (Ki) from initial cleavage velocities of a chromogenic peptide substrate
# Assay type: biochemical
# Conditions: sodium citrate pH 5.0, 37°C, 5 min pre-equilibrium
compound,measurement,value
CC(C)CC(C=O)NC(=O)C(Cc1ccccc1)NC(=O)C(Cc1ccccc1)NC(=O)OCc1ccccc1 (stereo not shown),Ki,135 nM
